Experimental findings from PubChem BioAssay AID588335 (The Scripps Research Institute Molecular Screening Center, 2011) are described below.

For orientation: inhibition means the change of the read-out against control, counted positive when it falls.

The list shows a part of the results, in another mix than the full data. Activity calls are given as the source filed them. Rule as the data show it: active = inhibition above about 30%; inactive = the rest.

This test is described as follows: GDH-TPI coupling enzyme inhibitors, primary screen, artefact control for M. tuberculosis FBA inhibitor project, biochemical, absorbance, full deck (AID 588335).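 Also: 0% = DMSO wells and 100% = wells lacking the enzyme.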 As to conditions: GDH-TPI coupled enzyme counterscreen, NADH absorbance; at 4.8 µM; hits give high values.
For `Nc1cccc([As](=O)(O)c2ccccc2)c1`, the inhibition is inactive: -13.6%.
As for `O=[As](O)(c1cccs1)c1cccs1`, the inhibition is inactive: 2.46%.
In the case of `Cc1ccc(OCC(=O)OC2CN3CCC2CC3)cc1` (configuration not stated), the inhibition was inactive: 9.81%.
As for `O=P1(Nc2ccc(Br)cn2)COc2ccccc2OC1`, the inhibition was inactive: -7.77%.
In the case of `NS(=O)(=O)c1cccc(NC(=O)COC(=O)C(O)(c2ccccc2)c2ccccc2)c1`, the inhibition was inactive: -0.69%.
The result for `O=P1(Nc2ncccn2)COc2ccccc2OC1` reads inactive: -6.71%; that for `CN(C)C1(CNC(=O)c2ccc(S(C)(=O)=O)cc2)CCCCC1`, inactive: -6.15%; that for `CCCC1OP(=O)(Nc2ccccc2)OCC1CC` (configuration not stated), inactive: 1.38%.
Turning to `O=C(/C=C/c1ccccc1)OC1CN2CCC1CC2` (configuration not stated), the inhibition is inactive: -12.8%.
As for `CC1CCC(C(C)C)C(OP(=O)(Nc2ccccn2)c2ccccc2)C1` (configuration not stated), the inhibition is inactive: -0.96%.
The result for `Cc1ccc(C(=O)OC2CN3CCC2CC3)cc1` (configuration not stated) reads inactive: 5%; that for `Cc1nn(-c2ccccc2)c2c1P(=O)(N1CCOCC1)N(C)C(c1ccccc1)=N2` (configuration not stated), inactive: -1.13%; that for `CC(C)/C=N\N=C(\N)N[N+](=O)[O-]`, inactive: 0.32%.
As for `CN(C(=O)Cc1ccc(Cl)c(Cl)c1)[C@@H]1CCCC[C@H]1N1CCCC1`, the inhibition was inactive: 9.84%.
`CC1(CBr)Cn2c(nc3ccccc3c2=O)S1` (configuration not stated): the inhibition was inactive: -1.88%.
Next, `COc1ccccc1CNC(=O)COC(=O)C(O)(c1ccccc1)c1ccccc1`: inactive: 1.42%; `CC(C)(C)C(=O)NC(Sc1ncccn1)C(Cl)(Cl)Cl` (configuration not stated): inactive: -3.7%; `O=P1(N(CCCl)CCCl)NCCC(C(F)(F)F)O1` (configuration not stated): inactive: 8.23%.
Consider `Clc1n[nH]nc1-c1nn[nH][15n]1`, for which the inhibition is inactive: 11%.
Take `CCOP(=O)(NC(=NC(C)c1ccccc1)NC(C)c1ccccc1)OCC` (configuration not stated): the inhibition was inactive: 1.09%.
Take `O=P1(Nc2ccccn2)COc2ccccc2OC1`: the inhibition was inactive: 6.21%.
As to `CCC1=CC2Cc3nc4ccc(Cl)cc4c(N)c3C(C1)C2` (configuration not stated), the inhibition is inactive: 14.4%.
Next, `CCOP(=O)(Nc1ccc(C)cn1)OCC`: inactive: -1.47%; `CN(CCCl)Cc1cc(Cl)c(NC2=NCCN2)c(Cl)c1`: inactive: -0.52%; `CCOP(=O)(Nc1cccc2ccccc12)OCC`: inactive: -1.29%.
`COc1cc(C2NCCC3(OCCO3)C2(C)C)cc(OC)c1OC` (configuration not stated): the inhibition is inactive: 7.78%.
In the case of `Nc1cccc2c([As](=O)(O)O)cccc12`, the inhibition was inactive: 12.2%.
The result for `Cc1ccc(NCCc2c([N+](=O)[O-])cc([N+](=O)[O-])cc2[N+](=O)[O-])cc1` reads inactive: 10.7%.
`CCCOP(=S)(Nc1nc(N)cc(=O)[nH]1)OCCC`: the inhibition is inactive: -7.81%.
Next, `Cc1cccc(OCC(=O)OC2CN3CCC2CC3)c1` (configuration not stated): inactive: 4.27%; `O=[As](O)(c1cccc(O)c1)c1cccc(O)c1`: inactive: 1.44%; `O=C(OC1CN2CCC1CC2)c1ccc(Cl)cc1` (configuration not stated): inactive: -0.77%.
The result for `CS(=O)(=O)c1ccc(Cl)c(NC(=O)COC(=O)C(O)(c2ccccc2)c2ccccc2)c1` reads inactive: 7.33%; that for `O=[As](O)(O)c1cccnc1`, inactive: 3.7%.
The result for `COc1cc(C(=O)NCC2(N3CCOCC3)CCCCC2)cc(Cl)c1OC(C)C` reads inactive: -11.5%; that for `CN(C(=O)Cc1ccccc1)[C@@H]1CC[C@]2(CCCO2)C[C@H]1N1CCCC1`, inactive: 6.74%; that for `CCOP1(=S)c2c(C)nn(CCC#N)c2N=C(c2ccc(F)cc2)N1C` (configuration not stated), inactive: 14.3%.
On to `N#CCCN(C(=O)COC(=O)C(O)(c1ccccc1)c1ccccc1)c1ccc(F)cc1`, for which the inhibition was inactive: 2.76%.
As to `CN(C(=O)Cc1ccc(Cl)c(Cl)c1)[C@H]1CC[C@@]2(CCCO2)C[C@@H]1N1CCCC1`, the inhibition was inactive: -11.1%.
The result for `O=[N+]([O-])c1ccc2c(c1)nnn2O` reads inactive: 18.9%.
Turning to `CN(C)C(=O)c1cc([N+](=O)[O-])cc2c1-c1c(cc([N+](=O)[O-])cc1[N+](=O)[O-])C2=O`, the inhibition was inactive: 13.8%.
Next, `NC(=O)Nc1ccc([As](=O)(O)O)cc1`: inactive: -1.72%; `Nc1ccccc1[As](=O)(O)c1ccccc1`: inactive: 5.26%.
On to `O=C(O)COc1ccc([As](=O)(O)O)cc1[N+](=O)[O-]`, for which the inhibition was inactive: 16%.
The result for `O=P(Nc1nccs1)(Oc1ccccc1)Oc1ccccc1` reads inactive: 10.4%.
Take `O=P(Nc1nccs1)(c1ccccc1)c1nc2ccccc2s1` (configuration not stated): the inhibition is inactive: -1.89%.
On to `CCOP1(=S)c2c(C)nn(CCC#N)c2N=C(c2ccccc2F)N1C` (configuration not stated), for which the inhibition is inactive: -7.05%.
Regarding `CS(=O)(=O)c1cc([N+](=O)[O-])c2no[n+]([O-])c2c1`, the inhibition was inactive: 20.6%.
`O=[N+]([O-])c1cc([N+](=O)[O-])c(-c2ccn[nH]2)s1`: the inhibition was inactive: 18.9%.
As to `CC(C)NC(=O)NP(=O)(Oc1ccccc1)Oc1ccccc1`, the inhibition was inactive: 4.42%.
The result for `O=C(OC1CN2CCC1CC2)c1cccc2[nH]cnc12` (configuration not stated) reads inactive: 5.62%; that for `CCN(CC)C(=S)SC(NC=O)C(Cl)(Cl)Cl` (configuration not stated), inactive: 2.62%.
On to `ClCCSc1nnc(-c2cccnc2)o1`, for which the inhibition was inactive: -5.91%.
For the compound `COC(=O)C1(C)COP(=O)(N2CCCCCC2)OC1` (configuration not stated), the inhibition was inactive: -1.38%.
With `CC(C)c1ccc(OP(=O)(Nc2ccccn2)Oc2ccccc2F)cc1` (configuration not stated), the inhibition was inactive: 10.3%.
The result for `Cc1ccc(OP(=O)(Nc2ccc([N+](=O)[O-])cn2)Oc2ccc(C)cc2)cc1` reads inactive: 4.29%; that for `Cc1ccc2nc3c(c(C)c2c1)CC(C(Cl)Cl)S3` (configuration not stated), inactive: 13.6%.
The result for `O=[N+]([O-])c1ccc(-c2cc([N+](=O)[O-])c(O)c([N+](=O)[O-])c2)cc1` reads active: 35.7%; that for `COc1cc(C(=O)NCC2(N3CCOCC3)CCCCC2)ccc1OCC(C)C`, inactive: 4.9%.
Regarding `O=[As](O)(c1ccc(O)cc1)c1ccccc1O`, the inhibition was inactive: -13.6%.
For `C[As](=O)(O)c1cccc(C(=O)O)c1`, the inhibition is inactive: -10.8%.
The result for `O=[N+]([O-])c1cc(Oc2ccc([N+](=O)[O-])cc2C(F)(F)F)cc([N+](=O)[O-])c1` reads inactive: -5.96%; that for `COc1ccc(N/C(=N/P(=O)(N2CCOCC2)N2CCOCC2)N2CCOCC2)cc1`, inactive: -0.63%.
For the compound `O=P1(N(CCCl)CCCl)Nc2ccccc2N1`, the inhibition is inactive: 7.05%.
`O=P1(N(CCCl)CCCl)OCCCN1CCCl` (configuration not stated): the inhibition was inactive: -3.21%.
As for `COc1cc(I)ccc1[As](=O)(O)O`, the inhibition was inactive: -6.28%.
Consider `COc1ccc2nc(NP(=O)(c3ccccc3)c3ccccc3)sc2c1`, for which the inhibition was inactive: -1.22%.
Next, `Cc1c2c(nc3ccccc13)SC(C(Cl)Cl)C2` (configuration not stated): inactive: 15%; `Cc1cc(=O)[nH]c(N[N+](=O)[O-])n1`: inactive: 11.9%; `O=C(OC1CN2CCC1CC2)C12CC3CC(CC(C3)C1)C2` (configuration not stated): inactive: -10.6%.
`CCC(C)N(CC(C)C)C(=S)SC(NC(C)=O)C(Cl)(Cl)Cl` (configuration not stated): the inhibition was inactive: -1.54%.
Take `CSc1ccc(Nc2c([N+](=O)[O-])cc([N+](=O)[O-])cc2[N+](=O)[O-])cc1`: the inhibition is active: 31.9%.
The result for `O=C(OC1CN2CCC1CC2)c1cccc([N+](=O)[O-])c1` (configuration not stated) reads inactive: 2.54%; that for `CCOC(=O)c1ccc(NC(=O)C(C)(CCl)SC)cc1` (configuration not stated), inactive: -8.43%.
Consider `O=C(O)C(=O)c1ccc(N(CCCl)CCCl)cc1`, for which the inhibition was inactive: 28.3%.
For the compound `O=C(Nc1ccncc1[N+](=O)[O-])c1ccc([N+](=O)[O-])cc1[N+](=O)[O-]`, the inhibition was inactive: 5.71%.
Turning to `O=C(COc1ccccc1)OC1CN2CCC1CC2` (configuration not stated), the inhibition is inactive: 0.39%.
In the case of `COP1(=S)c2c(C)nn(CCC#N)c2N=C(c2ccc(F)cc2)N1C` (configuration not stated), the inhibition was inactive: -2.35%.
Consider `O=P(Nc1ccccn1)(c1cccc2ccccc12)c1cccc2ccccc12`, for which the inhibition was inactive: -3.82%.
Turning to `Cc1cc(SC(NC=O)C(Cl)(Cl)Cl)ncn1` (configuration not stated), the inhibition is inactive: 9.91%.
As to `O=[N+]([O-])c1ccc(Nc2ccc(Oc3ccc([N+](=O)[O-])cc3[N+](=O)[O-])cc2)c([N+](=O)[O-])c1`, the inhibition was inactive: 13%.
On to `CCOC(=O)Nc1cccc([As](=O)(O)O)c1`, for which the inhibition was inactive: 11%.
Consider `COP(=O)(OC)N1CC1c1ccccc1` (configuration not stated), for which the inhibition is inactive: -3.54%.
`Cc1cc(SC(NC(=O)c2ccccc2)C(Cl)(Cl)Cl)nc(C(C)C)n1` (configuration not stated): the inhibition was inactive: 6.87%.
On to `CCCCOc1ccc(C(=O)NCC2(N3CCCCC3)CCCCC2)cc1OC`, for which the inhibition was inactive: -3.76%.
On to `CCOC(=O)Nc1ccc([As](=O)(O)O)c(O)c1`, for which the inhibition was inactive: 3.38%.
Regarding `O=C(O)C(O)c1ccc(N(CCCl)CCCl)cc1` (configuration not stated), the inhibition is inactive: 9.33%.
Consider `CC1CCNP(=O)(N(CCCl)CCCl)O1` (configuration not stated), for which the inhibition is inactive: 0%.
For `O=C(O)CNc1ccc([As](=O)(O)O)cc1`, the inhibition was inactive: 0.35%.
The result for `COC(=O)C1(C)COP(=O)(Nc2ccccc2)OC1` (configuration not stated) reads inactive: 7.8%; that for `O=[N+]([O-])c1cccc(NC2=NCC(CBr)S2)c1` (configuration not stated), inactive: 22.4%.
With `O=[N+]([O-])c1ncn(CCn2ncnc2[N+](=O)[O-])n1`, the inhibition is inactive: 0%.
For `CC(C)(C)C(=O)NC(Sc1ccncn1)C(Cl)(Cl)Cl` (configuration not stated), the inhibition was inactive: -3.38%.
Regarding `O=C(Nc1cc([As](=O)(O)O)ccc1O)c1ccccc1`, the inhibition is inactive: 3.35%.
As for `O=P1(N(CCCl)CCCl)OCCCS1` (configuration not stated), the inhibition was inactive: 4.41%.
On to `CC1CCN(C(=O)Oc2c(Cl)cc(Cl)c3cccnc23)CC1`, for which the inhibition is inactive: -3.47%.
The result for `c1cc(-c2nn[nH]n2)ccc1-c1nn[nH]n1` reads inactive: 6.19%.
In the case of `CN(C)C(=O)OCCc1n(C)cc[n+]1C`, the inhibition was inactive: -5.15%.
Consider `CC(C)c1nc(Nc2ccccc2)n(P(=O)(N(C)C)N(C)C)n1`, for which the inhibition was inactive: 7.08%.
Next, `CC(C)=N/N=C(\N)N[N+](=O)[O-]`: inactive: 0%.
Consider `CCN(/C(=N/P(=O)(N1CCOCC1)N1CCOCC1)N1CCOCC1)c1ccc(OC)cc1`, for which the inhibition was inactive: 3.1%.
Take `C[N+]1=C2C=CC=CC=C2SC12C([N+](=O)[O-])=CC([N+](=O)[O-])=C[C-]2[N+](=O)[O-]` (configuration not stated): the inhibition is inactive: 9.96%.
